Measurements from ChEMBL document CHEMBL1152129, “Quantitative structure-activity relationship and complex network approach to monoamine oxidase A and B inhibitors” (J Med Chem, 2008).

Chains of the proteins cited; added tags and fusions are not shown. Residues count along the entry.
UniProt P21397, whole entry, looked up: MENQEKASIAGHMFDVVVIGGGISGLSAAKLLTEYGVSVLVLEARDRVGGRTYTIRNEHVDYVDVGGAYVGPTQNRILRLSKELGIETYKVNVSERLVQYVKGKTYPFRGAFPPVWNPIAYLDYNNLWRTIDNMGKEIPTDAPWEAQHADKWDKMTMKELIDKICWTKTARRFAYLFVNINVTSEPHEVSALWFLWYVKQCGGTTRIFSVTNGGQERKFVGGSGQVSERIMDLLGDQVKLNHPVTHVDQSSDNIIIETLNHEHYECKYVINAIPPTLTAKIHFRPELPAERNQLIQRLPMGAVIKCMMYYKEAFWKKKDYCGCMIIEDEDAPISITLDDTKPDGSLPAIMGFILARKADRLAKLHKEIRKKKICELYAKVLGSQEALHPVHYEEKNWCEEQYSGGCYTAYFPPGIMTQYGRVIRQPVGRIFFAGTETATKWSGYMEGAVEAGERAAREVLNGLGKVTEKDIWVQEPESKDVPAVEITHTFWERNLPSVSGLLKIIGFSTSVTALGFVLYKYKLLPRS
UniProt P27338, 2-520 limits assumed: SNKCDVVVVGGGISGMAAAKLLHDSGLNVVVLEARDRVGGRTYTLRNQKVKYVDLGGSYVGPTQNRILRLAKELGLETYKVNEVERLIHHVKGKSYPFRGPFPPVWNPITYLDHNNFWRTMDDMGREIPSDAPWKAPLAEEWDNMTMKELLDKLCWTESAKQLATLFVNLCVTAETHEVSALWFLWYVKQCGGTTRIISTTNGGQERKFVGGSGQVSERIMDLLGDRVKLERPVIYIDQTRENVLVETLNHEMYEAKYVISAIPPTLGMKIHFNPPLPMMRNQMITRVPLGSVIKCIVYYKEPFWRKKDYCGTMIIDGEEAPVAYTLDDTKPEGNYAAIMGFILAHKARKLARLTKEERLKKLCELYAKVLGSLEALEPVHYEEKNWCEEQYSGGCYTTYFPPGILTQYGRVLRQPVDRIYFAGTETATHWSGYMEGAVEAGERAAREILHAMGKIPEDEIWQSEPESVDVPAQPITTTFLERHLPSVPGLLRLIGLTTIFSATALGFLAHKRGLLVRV

Tests used:
[1] = biological target: T1, Amine oxidase [flavin-containing] A (Homo sapiens, UniProt P21397); test: Inhibition of human recombinant MAOA by fluorimetric method
[2] = biological target: Amine oxidase [flavin-containing] B (Homo sapiens, UniProt P27338); test: Inhibition of human liver MAOB
[3] = biological target: T1, Amine oxidase [flavin-containing] A; test: Inhibition of human recombinant MAOA at 100 uM by fluorimetric method
[4] = biological target: T1, Amine oxidase [flavin-containing] A; test: Inhibition of human liver MAOA

Row | SMILES | Activity [1] | Activity [2] | Activity [3] | Activity [4]
1 | O=C(O)Cc1ccc(N(CCCl)CCCl)cc1 | Not Active |  |  | 
2 | O=P(NCCCO)(OCCCl)N(CCCl)CCCl (stereo not given) |  | Not Active | Not Active | Not Active
3 | O[C@@H]([C@H](O)[C@H](O)CNCCCl)[C@H](O)CNCCCl | Not Active |  |  | 
